PubChem BioAssay AID1259414 | Drosophila RNAi Screening Center, 2018

Purpose: 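Genome-wide screen for host control of endosymbiont load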 (primary screen)
System: Drosophila JW18 cells infected with Wolbachia
Reagent: long dsRNA against Drosophila genes, 0.25 µg dsRNA per well of a 384-well plate
Time to read-out: 5 days
Challenge: cells persistently infected with Wolbachia before knock-down; no added drug
Detection: 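Automated imaging of bacterial rRNA staining divided by host cell count, reported as plate-normalised robust z-score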
Reading the numbers: Wolbachia per cell robust z: higher = more Wolbachia per host cell than the plate typical
Hit rule: 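Hit when robust z is 1.5 or more, or -1.5 or less, in at least two of three replicates; excludes dsRNAs with several or no targets, genes not expressed in JW18 and well A1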
In all, the deposit lists about 24,000 reagents; this is an unselected part of those that have a named target and a result. In the full data, about 1,210 (5%) got an active call. 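Inactive calls also include excluded dsRNAs with several or no targets, genes unexpressed in JW18, and well A1, regardless of score.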 Entries without a mark were called inactive.

The first 3 records, to show the layout:
no.	gene knocked down	DRSC id	Wolbachia per cell robust z, rep 1	Wolbachia per cell robust z, rep 2	Wolbachia per cell robust z, rep 3
1	CG4101	DRSC10400	0.142	0.00143	-1.69
2	Cpr72Ea	DRSC10451	-0.919	-0.0215	-2.24
3	CG7483	DRSC16249	-0.372	-0.695	-0.93

Results, repeating the preview:
no.	gene knocked down	DRSC id	Wolbachia per cell robust z, rep 1	Wolbachia per cell robust z, rep 2	Wolbachia per cell robust z, rep 3
1	CG4101	DRSC10400	0.142	0.00143	-1.69
2	Cpr72Ea	DRSC10451	-0.919	-0.0215	-2.24
3	CG7483	DRSC16249	-0.372	-0.695	-0.93
4	CG7483	DRSC22432	1.79 (active)	2.31	0.7
5	CG7483	DRSC26402	-1.99	0.487	0.425
6	CG6295	DRSC16012	-4.4	0.51	1.21
7	CG6295	DRSC24229	-1.54	0.105	-0.282
8	Vha100-5	DRSC02175	-1.51	-3.93	-0.384
9	Vha100-5	DRSC26439	-0.179	1.65	-0.369
10	Ama	DRSC12489	0.931	0.0369	0.131
11	CG15219	DRSC03715	0.113	0.0658	0.271
12	CG15115	DRSC06537	-0.165	0.402	0.158
13	lbm	DRSC07643	-0.131	1.31	2.47
14	AP-1-2beta	DRSC19336	0.502	0.784	0.87
15	AP-1-2beta	DRSC23868	1.4	1.96	1.08
16	RpL19	DRSC04649	2.73	1.42	0.901
17	RpL19	DRSC28391	0.83 (active)	2.03	2.23
18	Obp73a	DRSC09907	-0.0796	1.1	-9.25
19	CG17048	DRSC06649	-0.668	-6.02	0.669
20	Adck5	DRSC10890	1.08	0.128	0.877
21	CG6171	DRSC15982	0.341	-1.08	-0.303
22	pug	DRSC17036	-0.648	-0.597	-5.32
23	pug	DRSC29896	0.064	0.0408	0.974
24	Fgop2	DRSC02016	0.639 (active)	1.9	2.39
25	RpL32	DRSC16835	1.62 (active)	1.11	1.47
26	RpL32	DRSC27164	2.06	0.0416	0.0537
27	CG17571	DRSC01768	-0.052	-0.237	-0.634
28	CG17571	DRSC03755	0.448	0.0858	-0.0595
29	CG17571	DRSC25111	0.329	0.116	-0.195
30	GstE9	DRSC06679	-1.63	-0.629	1.25
31	GstE9	DRSC29204	-0.26	-0.662	0.0422
32	CG9550	DRSC03262	-0.902	0.6	-0.0201
33	CG9550	DRSC26557	-0.478	-0.389	1.3
34	CG32811	DRSC22649	0.681	-0.359	-0.86
35	CG18731	DRSC15377	-0.182	0.66	1.27
36	Sfmbt	DRSC02552	-1.39	0.603	-0.13
37	Sfmbt	DRSC24312	-0.576	0.483	0.557
38	Dsk	DRSC12347	0.136	-0.518	-0.312
39	CG10565	DRSC11620	-0.144	-1.03	0.726
40	Or42a	DRSC04912	0.327	-2.22	-0.505
41	Elp4	DRSC25002	0.661	-0.131	0.588
42	MtnB	DRSC22744	0.425	0.436	1.2
43	MtnB	DRSC29147	-0.305	-0.0445	-2.4
44	CG6927	DRSC18407	-0.391	0.377	2.74
45	Ir92a	DRSC15111	0.124	-6.12	-1.27
46	NimC4	DRSC01945	-0.234	-6.05	-0.918
47	Ilp2	DRSC10968	-0.0609	0.231	1.22
48	Ilp2	DRSC29688	-0.484	1.39	-0.402
49	CG31525	DRSC12004	0.226	-0.741	-0.831
50	CG4806	DRSC04491	0.486	0.00753	0.0415
51	PolA1	DRSC16640	1.5 (active)	0.338	1.52
52	PolA1	DRSC27879	0.0462	-0.388	-0.761
53	Frq1	DRSC19961	1.03	-0.543	-1.4
54	Frq1	DRSC25439	-0.776	-1.76	-1.31
55	Ncc69	DRSC10412	0.595	-1.8	0.0443
56	Ncc69	DRSC10413	0.11	-4.28	-1.13
57	Ncc69	DRSC23572	0.935	0.893	0.0652
58	CG4646	DRSC06876	-0.341	-0.179	-1.74
59	AstA-R2	DRSC14171	-2.84	-0.734	0.00253
60	AstA-R2	DRSC24820	0.396	0.84	-0.263
61	prt	DRSC16894	-3.96	-0.381	-1.2
62	Chd3	DRSC11114	-1.28 (active)	-1.7	-2.69
63	Chd3	DRSC23701	0.932	-1.3	-2.78
64	Gr59d	DRSC22553	0.97	0.83	1.24
65	CG14079	DRSC10083	0.256	0.00158	-1.69
66	CG14102	DRSC10103	-4.37	-1.06	0.48
67	CG5003	DRSC15694	3.01	-0.392	-0.957
68	CG5003	DRSC26689	1.22	0.27	-0.117
